# HIV-1 NL4-3 point mutations in non-coding ends: replication capacity

Source: Al-Mawsawi et al. 2014 (doi:10.1186/s12977-014-0124-6), supplementary data.

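Random point mutant libraries of HIV-1 NL4-3, one for each of seven fragments, were passaged in CEM T lymphocytes. Sequencing gave the RC index: frequency after two rounds over frequency in the input plasmid.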

Positions lie in the non-coding 5' end or the 3' LTR of the genome. Changes in the 5' U3 are not copied into viral RNA and those in the 3' R are mostly lost on reverse transcription, so a low index there need not show harm (not discussed in the paper).

A higher RC index is a better tolerated change; approximate classes are lethal up to 0.1, attenuated to 0.2, tolerated above.
Input reads are the counts in the plasmid library.
An index over 1, which the authors read as above wild type, was rare (1.9% of all changes in the genome).
Since each clone held several changes (about five per kb), neutral changes can read low.
Nucleotide positions follow pNL4-3.

base,region,input reads,RC
C9443T,3' U3,292,0.422
G9457C,3' U3,131,0.464
G9412T,3' U3,152,0.511
A9478G,3' U3,681,0.336
G382T,5' U3,113,0.217
G9470A,3' U3,215,1.30
T569A,5' U5/leader,49,0.290
G9451T,3' U3,326,0.539
A396G,5' U3,207,0.118
T9604C,3' R,63,0.176
T9446G,3' U3,34,0.199
T318C,5' U3,252,0.341
T9534C,3' R,78,0.569
T388C,5' U3,356,0.413
C422A,5' U3,119,0.406
C347A,5' U3,366,0.302
G9418C,3' U3,117,0.621
A431T,5' U3,225,0.429
C9527T,3' U3,267,0.764
T9420A,3' U3,187,0.894
A9550G,3' R,103,0.151
G375T,5' U3,609,0.503
G464C,5' R,51,0.946
T371A,5' U3,358,0.137
G9457A,3' U3,648,0.451
T559C,5' U5/leader,167,0.867
C9434A,3' U3,330,0.573
G9425A,3' U3,170,1.23
C9488T,3' U3,127,0.873
A9428G,3' U3,214,0.379
G339A,5' U3,385,0.223
G9455A,3' U3,305,0.615
G775T,5' U5/leader,120,0.113
C9567T,3' R,83,0.0535
G9439A,3' U3,252,0.784
T448C,5' U3,139,0.347
T745A,5' U5/leader,477,0.0284
A281T,5' U3,470,0.102
G9440A,3' U3,280,0.440
C738A,5' U5/leader,81,0.119
G409T,5' U3,135,0.273
C9527A,3' U3,83,0.909
A241T,5' U3,180,0.0758
A9555T,3' R,170,0.0522
G352T,5' U3,107,0.344
A784T,5' U5/leader,295,0.0328
T9437G,3' U3,108,0.751
A9506G,3' U3,207,0.0643
G487A,5' R,108,0.447
C368T,5' U3,382,0.289
A9424T,3' U3,558,0.893
T742C,5' U5/leader,220,0.0615
C9467T,3' U3,485,0.839
A9505G,3' U3,156,0.0711
G230T,5' U3,290,0.764
G9507A,3' U3,202,0.999
C565T,5' U5/leader,199,0.728
T9534A,3' R,82,0.216
A488T,5' R,133,0.726
G746A,5' U5/leader,251,0.200
G9520T,3' U3,68,0.228
T371C,5' U3,242,0.456
T9445G,3' U3,51,0.497
G399A,5' U3,299,0.287
T9553A,3' R,171,0.662
A9579G,3' R,140,0.158
G164A,5' U3,279,0.0611
T9518A,3' U3,277,0.769
G785T,5' U5/leader,194,0.139
C368A,5' U3,110,0.111
T9574A,3' R,129,0.0860
A773G,5' U5/leader,255,0.189
G9597A,3' R,169,0.223
C512A,5' R,84,0.575
A755G,5' U5/leader,489,0.190

The first 9 entries again:

With C9443T (region 3' U3, input reads 292) the assay gave 0.422.
With G9457C (region 3' U3, input reads 131) the assay gave 0.464.
With G9412T (region 3' U3, input reads 152) the assay gave 0.511.
With A9478G (region 3' U3, input reads 681) the assay gave 0.336.
With G382T (region 5' U3, input reads 113) the assay gave 0.217.
With G9470A (region 3' U3, input reads 215) the assay gave 1.30.
With T569A (region 5' U5/leader, input reads 49) the assay gave 0.290.
With G9451T (region 3' U3, input reads 326) the assay gave 0.539.
With A396G (region 5' U3, input reads 207) the assay gave 0.118.